Pooled drug test results. Numbers come from NIAID ChemDB, via PubChem.

Shared fields: whole-cell or culture tests; agent: Rhinovirus; cell line: HeLa; measure: EC50

Rows are shuffled and stem from different studies. ECn is the concentration giving n% inhibition of infection, replication or growth.

SMILES,strain or isolate,read by,result
CCc1nc(-c2cc(C)c(OCCCc3cc(COC)no3)c(C)c2)no1,Serotype 89,cytopathic effect,0.004 µg/mL
O=c1c(Cc2ccccc2)coc2ccccc12,TYPE 1B,plaque count,4.64 µM
CS(=O)(=O)c1ccc(Oc2ccc(C(=O)c3ccccc3)cc2)nc1,TYPE 2,cytopathic effect,5 µg/mL
O=C(CCCCOc1c(Cl)cc(C2=NCCO2)cc1Cl)c1ccc(Cl)cc1,Serotype 14,cytopathic effect,>35 µM
COc1ccc(Cc2coc3ccccc3c2=O)cc1,TYPE 14,plaque count,15.37 µM
CCOC(=O)c1ccc(OCCC2CCN(c3ccc(C)nn3)CC2)cc1,Serotype 39,cytopathic effect,<0.1 µg/mL
N=C(N)c1ccc(C2=Cc3ccccc3OC2)cc1,Serotype 1B,cytopathic effect,>40 µM
CS(=O)(=O)c1ccc(NCc2ccc(Cl)c(Cl)c2)nc1,TYPE 2,cytopathic effect,0.6 µg/mL
COc1cc(/C=C/C(=O)Oc2c(-c3ccc(Cl)cc3)oc3ccccc3c2=O)ccc1OC(C)=O,Serotype 14,plaque count,>1.56 µM
CC(=O)c1coc(CCCOc2c(C)cc(-c3noc(C)n3)cc2C)c1,15 serotype mixtures,cytopathic effect,<0.4 µM
CS(=O)(=O)c1ccc(Cc2ccccc2)nc1,TYPE 1A,cytopathic effect,>10 µg/mL
CS(=O)(=O)c1cnc2c(c1)CCC(c1ccccc1)O2,TYPE 1A,cytopathic effect,>17 µM
COc1cc(/C=C/C(=O)Oc2c(-c3ccc(Cl)cc3)oc3ccccc3c2=O)ccc1O,Serotype 14,plaque count,3.24 µM
CC(=O)c1ccc(Oc2ccc(C#N)cn2)cc1,TYPE 1A,cytopathic effect,210 µM
Cc1ccc(CCCOc2c(C)cc(-c3noc(C)n3)cc2C)nn1,serotypes 2 14 1A 1B 6 21 22 15 25 30 50 67 89 86 41,cytopathic effect,0.241 µg/mL
CC(C)S(=O)(=O)n1c(N)nc2ccc(/C(=N/O)c3ccccc3)cc21,1059 (serotype 14),plaque count,0.05 µg/mL
COc1cc(C(=O)Oc2c(-c3ccc(Cl)cc3)oc3ccccc3c2=O)ccc1OC(C)=O,Serotype 14,plaque count,>6.25 µM
N#Cc1cc([N+](=O)[O-])ccc1Oc1ccc(Cl)c(Cl)c1,TYPE 64,cytopathic effect,0.2 µg/mL
c1cc(C2CCc3cc(C4=NCCO4)ccc3O2)ccc1C1=NCCO1,TYPE 1B,plaque count,1.64 µM
Cc1ccc(C(=O)CCCCCCOc2ccc(C3=NC(C)CO3)cc2)s1,TYPE 14,cytopathic effect,0.26 µM
CCOC(=O)c1ccc(OCCCCC(=O)c2ccc(C)c(Cl)c2)cc1,Serotype 14,cytopathic effect,140 µM
O=c1c(Cc2ccc(Cl)cc2)coc2cc(Cl)cc(Cl)c12,TYPE 14,plaque count,4.27 µM
C#CCOc1cc(OC)ccc1-c1cc(N(CC)CC)no1,Serotype 42 (group A),cytopathic effect,>40 µM
N#Cc1ccc(C2COc3ccc(C#N)cc3C2)cc1,Serotype 1B,plaque count,14.4 µM
O=C(/C=C(\O)c1ccccc1O)/C=C/c1ccc(Cl)cc1,Serotype 1B,plaque count,10.8 µM
Cc1ccc(C(=O)CCCCOc2ccc(C3=N[C@H](C)CO3)cc2)s1,TYPE 2,cytopathic effect,>13 µM
COc1ccc(/C=C2\COc3ccccc3C2=O)cc1,TYPE 1B,plaque count,>6.25 µM
CCOC(=O)c1ccc(OCCCCC(=O)c2ccc(Cl)c(Cl)c2)cc1,Serotype 14,cytopathic effect,>253 µM
Cc1ccc(/C=C/C(=O)/C=C(\O)c2ccccc2O)cc1,Serotype 14,plaque count,17.52 µM
COc1cc(C(=O)Oc2c(-c3ccc(Cl)c(Cl)c3)oc3ccccc3c2=O)ccc1O,Serotype 14,plaque count,>6.25 µM
O=C(CCCCOc1ccc(C2=NCCO2)cc1)c1ccc(F)cc1,Serotype 2,cytopathic effect,>293 µM
O=C(/C=C(\O)c1ccccc1O)/C=C/c1ccc([N+](=O)[O-])cc1,Serotype 1B,plaque count,>6.25 µM
CNC(=O)C(c1ccccc1)c1ccc2nc(N)n(S(=O)(=O)C(C)C)c2c1,1059 (serotype 14),plaque count,0.07 µg/mL
N#Cc1ccc(Oc2ccc(F)cc2)nc1,TYPE 2,cytopathic effect,34 µM
CCN(CC)c1cc(-c2ccc(OC)cc2OC)on1,Serotype 85 (group B),cytopathic effect,42.6 µM
CN(C)S(=O)(=O)n1c(N)nc2ccc(C(C(N)=O)c3cccc(F)c3)cc21,1059 (serotype 14),plaque count,0.05 µg/mL
Brc1ccc2c(c1)C=C(c1ccccc1)CO2,Serotype 1B,plaque count,5.12 µM
COC(=O)C(Cc1ccc(OCCCCC(=O)c2ccc(C)s2)cc1)NC(C)=O,TYPE 14,cytopathic effect,>86 µM
O=C(CCCCOc1ccc(C2=NCCO2)cc1)c1ccccc1,Serotype 14,cytopathic effect,41.1 µM
CCOC(=O)c1ccc(OCCCCC(=O)c2ccc(C)s2)cc1,TYPE 2,cytopathic effect,1.3 µM
CS(=O)(=O)c1cnc2c(c1)CCC(c1ccc(Cl)c(Cl)c1)O2,Serotype 2 (drug-resistant),cytopathic effect,>1 µg/mL
Cc1ccc(C(=O)CCCCCCOc2ccc(C3=NC(C)(C)CO3)cc2)s1,TYPE 2,cytopathic effect,1.34 µM
Cc1cc(CCCCCOc2c(Cl)cc(C3=NCCO3)cc2Cl)on1,TYPE 50,plaque count,0.032 µg/mL
Cc1cc(OCCCc2ccc(CO)nn2)cc(C)c1-c1noc(C(F)(F)F)n1,serotypes 3 4 5 9 16 18 38 66 75 67,cytopathic effect,0.07 µg/mL
O=C1/C(=C/c2ccc(Cl)cc2)COc2cc(Cl)cc(Cl)c21,TYPE 1B,plaque count,0.36 µM
N#Cc1ccc(C2CCc3cc(C#N)ccc3O2)cc1,TYPE 1B,cytopathic effect,0.32 µM
Cc1ccc(C(=O)CCCCCCOc2ccc(C3=N[C@H](C)CO3)cc2)s1,TYPE 14,cytopathic effect,1.55 µM
CCOC(=O)c1ccc(OCCCCC(=O)c2ccccc2)cc1,Serotype 14,cytopathic effect,11 µM
COc1ccc(OCCCCCCn2ccnc2)c(Cl)c1,TYPE 14,plaque count,27.6 µM
N#Cc1ccc(C2CCc3ccccc3O2)cc1,TYPE 1B,plaque count,2.88 µM
CNC(=O)C(c1ccc2nc(N)n(S(=O)(=O)C(C)C)c2c1)c1cccc2ccccc12,1059 (serotype 14),plaque count,0.21 µg/mL
N=C(N)c1ccc2c(c1)C=C(c1ccccc1)CO2,Serotype 1B,plaque count,9.6 µM
CC(=O)c1cc(CCCOc2c(C)cc(-c3noc(C)n3)cc2C)co1,Serotype 14,cytopathic effect,0.3 µM
N#Cc1ccc(Oc2ccc(Cl)c(Cl)c2)nc1,TYPE 2,cytopathic effect,5 µM
CCOc1cc(OC)ccc1-c1cc(N(CC)CC)no1,Serotype 45 (group A),cytopathic effect,>90 µM
CS(=O)(=O)c1ccc(NCc2ccc(C(F)(F)F)cc2)nc1,TYPE 1A,cytopathic effect,>10 µg/mL
CNC(=O)C(c1ccc2nc(N)n(C(C)C)c2c1)c1cccc(F)c1F,1059 (serotype 14),plaque count,0.06 µg/mL
CS(=O)(=O)c1ccc(Cc2ccc(Cl)c(Cl)c2)nc1,TYPE 9,cytopathic effect,>10 µg/mL
COC(=O)c1cc(CCCOc2c(C)cc(-c3noc(C)n3)cc2C)on1,Serotype 86,cytopathic effect,0.078 µg/mL
COc1ccc(-c2cc(N3CCCC3)no2)c(O)c1,Serotype 2,cytopathic effect,4.2 µM
c1ccc(C2CCc3cc(C4=NCCO4)ccc3O2)cc1,TYPE 1B,plaque count,4.01 µM
O=C1c2cc(Cl)ccc2OCC1Cc1ccc(Cl)cc1,TYPE 14,plaque count,13.54 µM
COc1cc(C(=O)Oc2c(-c3ccc(Cl)c(Cl)c3)oc3ccccc3c2=O)cc(OC)c1O,Serotype 1B,plaque count,>1.56 µM
O=C(/C=C(\O)c1ccccc1O)/C=C/c1ccccc1,Serotype 1B,plaque count,20.59 µM
CCc1ccc(CCCOc2cc(C)c(-c3noc(C(F)F)n3)c(C)c2)nn1,serotypes 3 4 5 9 16 18 38 66 75 67,cytopathic effect,0.26 µg/mL
Brc1cnc2c(c1)C=CC(c1ccccc1)O2,TYPE 64,cytopathic effect,>3.47 µM
CCC1COC(c2ccc(OCCCCCCC(=O)c3ccc(C)s3)cc2)=N1,TYPE 14,cytopathic effect,0.5 µM
N#Cc1cccnc1Oc1ccc(C(=O)c2ccccc2)cc1,TYPE 2,cytopathic effect,>10 µg/mL
O=C(/C=C(\O)c1ccccc1O)/C=C/c1ccc(O)cc1,Serotype 1B,plaque count,>12.5 µM

The last 9 rows once more:

SMILES	strain or isolate	read by	result
c1ccc(C2CCc3cc(C4=NCCO4)ccc3O2)cc1	TYPE 1B	plaque count	4.01 µM
O=C1c2cc(Cl)ccc2OCC1Cc1ccc(Cl)cc1	TYPE 14	plaque count	13.54 µM
COc1cc(C(=O)Oc2c(-c3ccc(Cl)c(Cl)c3)oc3ccccc3c2=O)cc(OC)c1O	Serotype 1B	plaque count	>1.56 µM
O=C(/C=C(\O)c1ccccc1O)/C=C/c1ccccc1	Serotype 1B	plaque count	20.59 µM
CCc1ccc(CCCOc2cc(C)c(-c3noc(C(F)F)n3)c(C)c2)nn1	serotypes 3 4 5 9 16 18 38 66 75 67	cytopathic effect	0.26 µg/mL
Brc1cnc2c(c1)C=CC(c1ccccc1)O2	TYPE 64	cytopathic effect	>3.47 µM
CCC1COC(c2ccc(OCCCCCCC(=O)c3ccc(C)s3)cc2)=N1	TYPE 14	cytopathic effect	0.5 µM
N#Cc1cccnc1Oc1ccc(C(=O)c2ccccc2)cc1	TYPE 2	cytopathic effect	>10 µg/mL
O=C(/C=C(\O)c1ccccc1O)/C=C/c1ccc(O)cc1	Serotype 1B	plaque count	>12.5 µM